Compound potency records, mixed from different reports. Data source: NIAID ChemDB in PubChem.

All rows: tests in culture; organism: Mycobacterium tuberculosis

ECn is the concentration giving n% inhibition of infection, replication or growth.

structure,strain or isolate,read by,measure,tested at,result
CC[C@H]1OC(=O)[C@H](C)[C@@H](O[C@H]2C[C@@](C)(OC)[C@@H](O)[C@H](C)O2)[C@H](C)[C@@H](O[C@@H]2O[C@H](C)C[C@H](N(C)C)[C@H]2O)[C@](C)(OC)C[C@@H](C)C(=O)[C@H](C)[C@@H](O)[C@]1(C)O,38396,-,MIC,-,>4 µg/mL
CC(C)CCC[C@@H](C)CCC[C@@H](C)CCCC1(C)OC1CO,H37Rv,-,MIC,-,8 µg/mL
O=C(O)c1ccc(NC(=S)S)cc1,H37Rv,BACTEC,MIC,-,≥12.5 µg/mL
CC1COc2c(N3CCN(C)CC3)c(F)cc3c(=O)c(C(=O)O)cn1c23,SMI 15,BACTEC,MIC,-,4 µg/mL
O=C1c2cc(Cl)nnc2Oc2ccc(Cl)cc2N1CCCC1CCCCC1,H37Rv,BACTEC,inhibition,12.5 µg/mL,51%
C/C(O)=C(\C=N\C(=S)Nc1ccccc1)C(=O)Nc1ccc(Cl)cc1,H37Rv,BACTEC,inhibition,6.25 µg/mL,98%
CO[C@H]1/C=C/O[C@@]2(C)Oc3c(C)c(O)c4c(O)c(c5c(c4c3C2=O)NC2(CCN(CC(C)C)CC2)N=5)=NC(=O)/C(C)=C\C=C\[C@H](C)[C@H](O)[C@@H](C)[C@@H](O)[C@@H](C)[C@H](OC(C)=O)[C@@H]1C,31 (rifampicin-resistant),-,MIC,-,>2 µg/mL
Cc1c(CN2CCN(C)CC2)c(CN2CCN(C)CC2)c(-c2ccc(Cl)cc2)n1Cc1ccccc1,103471,-,MIC,-,>64 µg/mL
CCCCCCCCN1C(=O)c2cc(Cl)nnc2Oc2ccc(C)cc21,H37Rv,BACTEC,EC50,-,>12.5 µg/mL
CCOc1ccc(C(=O)N/N=C/C=C/c2ccccc2)cc1,-,-,MIC,-,<40 µg/mL
COc1cc2[nH]c(C)c(CCN3CCN(c4ccccc4)CC3)c2cc1OC,H37Rv,resazurin,MIC bound,-,>6.25 µg/mL
C[C@]1(COc2ccc(N3CCC(OCc4ccc(C(F)(F)F)cc4)CC3)cc2)Cn2cc([N+](=O)[O-])nc2O1,H37Rv,-,MIC,-,0.003 µg/mL
O=C(N/N=C/c1ccccc1)c1ccc(NS(=O)(=O)c2ccccc2)cc1,-,-,MIC,-,>200 µg/mL
C[C@H]1COc2c(N3CCN(C)CC3)c(F)cc3c(=O)c(C(=O)O)cn1c23,250 isolates,-,Mean MIC,-,0.579 µg/mL
CCOC(=O)Nc1cc(N)c2ncc(-c3cc(OC)c(OC)c(OC)c3)nc2n1,H37Rv,-,EC50,-,>12.5 µg/mL
C[C@]1(COc2ccc(N3CCC(COc4ccc5c(c4)oc4ccccc45)CC3)cc2)Cn2cc([N+](=O)[O-])nc2O1,H37Rv,-,MIC,-,0.024 µg/mL
NC[C@@H]1O[C@H](O[C@H]2[C@@H](O)[C@H](O[C@@H]3[C@@H](O)[C@H](N)C[C@H](N)[C@H]3O[C@H]3O[C@H](CO)[C@@H](O)[C@H](O)[C@H]3N)O[C@@H]2CO)[C@H](N)[C@@H](O)[C@@H]1O,H37Ra,-,Mean MIC,-,3.5 µg/mL
Cc1ccc2c(c1)Oc1nnc(Cl)cc1C(=O)N2CC1CCCCC1,H37Rv,BACTEC,EC50,-,12.5 µg/mL
NC[C@@H]1O[C@H](O[C@H]2[C@@H](O)[C@H](O[C@@H]3[C@@H](O)[C@H](N)C[C@H](N)[C@H]3O[C@H]3O[C@H](CO)[C@@H](O)[C@H](O)[C@H]3N)O[C@@H]2CO)[C@H](N)[C@@H](O)[C@@H]1O,H37Rv,-,MIC,-,<0.09 µg/mL
NC(=O)c1cnccn1,TB206,-,MIC,-,400 µg/mL
O=C1c2ccccc2-n2c1nc1ccc(OP(=O)(O)O)cc1c2=O,H37Rv,-,MIC,-,>8 µg/mL
CC[C@H]1OC(=O)[C@H](C)[C@@H](O[C@H]2C[C@@](C)(OC)[C@@H](O)[C@H](C)O2)[C@H](C)[C@@H](O[C@@H]2O[C@H](C)C[C@H](N(C)C)[C@H]2O)[C@](C)(OC)C[C@@H](C)C(=O)[C@H](C)[C@@H](O)[C@]1(C)O,H37Ra,-,Mean MIC,-,1.5 µg/mL
Cc1c(F)c(N2CCNC(C)C2)cc2c1c(=O)c(C(=O)O)cn2C1CC1,44 isolates (resistant),-,Mean MIC,-,1.189 µg/mL
C=CCCCCCCCC/C=N/NC(=O)CCSCCC(=O)N/N=C/CCCCCCCCC=C,H37Rv,BACTEC,MIC bound,-,>12.5 µg/mL
NNC(=O)c1ccncc1,Strain 325,-,MIC,-,8 µg/mL
Cc1ccc(-c2ccc(Cl)cc2)[nH]1,103471,-,MIC,-,4 µg/mL
NC(=O)C(=CNC(=S)Nc1ccccc1)C(N)=O,H37Rv,BACTEC,MIC bound,-,>6.25 µg/mL
CCCCCN(CCCCC)c1ccc2c(=O)n3c(nc2c1)C(=O)c1cc(Cl)ccc1-3,H37Rv,-,MIC,-,2 µg/mL
NNC(=O)c1ccc(N)cc1,-,-,MIC,-,40 µg/mL
Cc1cc(C(N)=O)c(C(N)=O)c(Cl)n1,H37Rv,BACTEC,MIC,-,≥12.5 µg/mL
CCCCCCCCCN1C(=O)c2cc(Cl)nnc2Oc2cc(C)ccc21,H37Rv,BACTEC,inhibition,12.5 µg/mL,0%
CCOC(=O)Nc1cc2nc(-c3ccccc3)c(-c3ccccc3)nc2c(N)n1,H37Rv,-,EC50,-,<12.5 µg/mL
CC(CNC1CCCCCCC1)N[C@H]1C[C@H]2C[C@@H]([C@@H]1C)C2(C)C,-,-,MIC,-,12.5 µM
CCOC(=O)Nc1cc(NC(C)C(C)c2ccc3c(c2)OCO3)c([N+](=O)[O-])c(N)n1,H37Rv,-,EC50,-,>12.5 µg/mL
Cc1cc(CN2CCN(C)CC2)c(C)n1Cc1ccccc1,H37Rv,-,MIC,-,<12.5 µg/mL
CCOC(=O)Nc1cc(NC(CC)C(=O)c2ccccc2)c([N+](=O)[O-])c(N)n1,H37Rv,-,inhibition,12.5 µg/mL,0%
NNC(=O)c1ccccc1Nc1ccccc1,-,-,MIC,-,>40 µg/mL
COc1ccc(CCC2CCc3ccccc3N2C)cc1OC,MT8,-,MIC,-,>322 µg/mL
CC(C)c1ccc2c(c1)CC[C@H]1[C@](C)(CNCCNCc3ccc(C(F)(F)F)cc3)CCC[C@]21C,-,-,MIC,-,25 µM
COc1cc(C(=O)N/N=C/C(=O)O)cc(OC)c1OC,H37Rv,BACTEC,inhibition,12.5 µg/mL,0%
C[C@]1(COc2ccc(N3CCC(OC/C=C/c4ccc(OC(F)(F)F)cc4)CC3)cc2)Cn2cc([N+](=O)[O-])nc2O1,H37Rv,-,MIC,-,0.0015 µg/mL
COc1cccc2c(=O)n3c(nc12)C(=O)c1cc(I)ccc1-3,H37Rv,-,MBC,-,8 µg/mL
CO[C@H]1/C=C/O[C@@]2(C)Oc3c(C)c(O)c4c(O)c(c(/C=N/N5CCN(C6CCCC6)CC5)c(O)c4c3C2=O)NC(=O)/C(C)=C\C=C\[C@H](C)[C@H](O)[C@@H](C)[C@@H](O)[C@@H](C)[C@H](OC(C)=O)[C@@H]1C,H37Rv (rifampicin-resistant),-,MIC,-,>40 µg/mL
CC(C)/C=C/C[C@H]1C(=O)O[C@H]2C[C@]3(C)C4=C[C@@H](O)[C@H]5C(C)(C)C(=O)CC[C@]5(C)C4CC[C@@]3(C)[C@@H]21,H37Rv,-,MIC,-,4 µg/mL
CCOC(=O)Nc1cc(Cl)c2nnn(C(=O)OCC)c2n1,H37Rv,BACTEC,MIC,-,≥12.5 µg/mL
COc1ccc(OC)c(CCNCCNC2CCCCCCC2)c1,-,-,MIC,-,50 µM
CC(C)CCC(=O)c1ccoc1,H37Rv,BACTEC,MIC,-,≥12.5 µg/mL
C=C1C(=O)O[C@@H]2C[C@@]3(C)CCC[C@H](C)C3=C[C@H]12,H37Rv,-,MIC,-,32 µg/mL
C[C@]1(COc2ccc(N3CCC(Cc4ccc(OC(F)(F)F)cc4)CC3)cc2)Cn2cc([N+](=O)[O-])nc2O1,H37Rv,-,MIC,-,0.006 µg/mL
CC(=O)NCCc1nc(-c2nc(C(=O)O)cs2)cs1,H37Rv,BACTEC,inhibition,12.8 µg/mL,33%
COc1ccc(CNCCNC23CC4CC(CC(C4)C2)C3)c(OC)c1,-,-,MIC,-,25 µM
C[C@H]1COc2c(N3CCN(C)CC3)c(F)cc3c(=O)c(C(=O)O)cn1c23,Strain 34,-,MIC,-,0.125 µg/mL
COC1/C=C\C=C(/C)C(=O)Nc2cc3nc4ccc(Br)cc4oc-3c(c2=O)CC(C)CC(OC)C(O)C(C)/C=C(\C)C1OC(N)=O,H37Rv,BACTEC,MIC bound,-,≤12.5 µg/mL
NNC(=O)c1ccncc1,MTB21 (S),-,MIC,-,0.12 µg/mL
CN[C@@H]1[C@H](O[C@H]2[C@H](O[C@H]3[C@H](O)[C@@H](O)[C@H](N=C(N)N)[C@@H](O)[C@@H]3N=C(N)N)O[C@@H](C)[C@]2(O)C=O)O[C@@H](CO)[C@H](O)[C@H]1O,101596,-,MIC,-,≥2 µg/mL
CCN(CC)CCCN(C)Cc1c(-c2ccccc2)oc(-c2ccccc2)c1Cl.Cl.Cl,H37Rv,BACTEC,MIC,-,1.56 µg/mL
NNC(=O)c1ccc(Cl)cc1,-,-,MIC,-,>200 µg/mL
CC(C)C1NC(=O)C2=CN(Cc3ccccc3)C=CC2NC(=O)C(C(C)C)NC(=O)C2=CN(Cc3ccccc3)C=CC2NC1=O,H37Rv,BACTEC,inhibition,12.5 µg/mL,-9%
CCCCCCn1c(C)ccc1-c1ccc(Cl)cc1,103471,-,MIC,-,4 µg/mL
CCOC(=O)Nc1cc(N)c2[nH]c(=S)n(N)c2c1,H37Rv,-,EC50,-,>12.5 µg/mL
Nc1nc2c([nH]c(=O)n2C2OC(CO)C(O)C2O)c(=O)n1N,H37Rv,BACTEC,MIC bound,-,>12.5 µg/mL
CO[C@H]1/C=C/O[C@@]2(C)Oc3c(C)c(O)c4c(O)c(c(/C=N/N5CCN(C6CCCC6)CC5)c(O)c4c3C2=O)NC(=O)/C(C)=C\C=C\[C@H](C)[C@H](O)[C@@H](C)[C@@H](O)[C@@H](C)[C@H](OC(C)=O)[C@@H]1C,H37Ra,-,Median MIC,-,0.003 µg/mL
Cc1cccc2c(=O)c3cccc(CC(=O)O)c3oc12,H37Rv,BACTEC,MIC bound,-,>12.5 µg/mL
CC(C)N=c1cc2n(-c3ccc(Cl)cc3)c3ccccc3nc-2cc1Nc1ccc(Cl)cc1,H37Rv,-,Median MIC,-,0.23 µg/mL
CCCCCCCCCCCCCCCCCCNCCNC1CCC1,-,-,MIC,-,50 µM
CSC(=S)N/N=C/c1ccc[nH]1,H37Rv,BACTEC,MIC bound,-,≤128 µg/mL
C[C@H](NCCNC(c1ccccc1)c1ccccc1)C1CCCCC1,-,-,MIC,-,50 µM
CCOC(=O)c1cn(CC)c2cc(-n3cccc3)ccc2c1=O,H37Rv,BACTEC,MIC bound,-,>6.25 µg/mL
NC(=O)c1cnccn1,DHMH5207 niacin-negative,-,MIC,-,>2048 µg/mL
CCOC(=O)c1ccc2c(c1)C(=O)c1nc3c(OC)cccc3c(=O)n1-2,H37Rv,-,MIC,-,0.06 µg/mL
CC(=O)OC1CCCC2=C1N=C1C=CC=CC1[N+]2=O,H37Rv,BACTEC,MIC bound,-,>12.5 µg/mL
O=C1c2cc(I)ccc2-n2c1nc1ncccc1c2=O,TN1618RFLF:P (MDR),-,MIC,-,0.03 µg/mL
CCCCCc1cc(OC)c2ccccc2n1,MT9,-,MIC,-,42 µg/mL
Cc1ccc(NN=O)nc1,H37Rv,BACTEC,inhibition,12.5 µg/mL,51%
CCOC(=O)Nc1cc(NCc2ccc(S(=O)(=O)N(CC)CC)cc2)c(N)c(N)n1,H37Rv,-,inhibition,12.5 µg/mL,0%
Cc1c(CN2CCOCC2)cc(-c2ccc(Cl)cc2)n1Cc1ccccc1,103471,-,MIC,-,8 µg/mL
CC1=CCC/C(C)=C/[C@H]2OC(=O)[C@@H](C)[C@@H]2CC1,H37Rv,-,MIC,-,128 µg/mL
COC(=O)C1C(=O)C2OC1C1OC(C)(C)OC21,H37Rv,BACTEC,MIC bound,-,>12.5 µg/mL
O=C1c2ccccc2-n2c1nc1ncccc1c2=O,H37Rv,-,MIC,-,0.25 µg/mL
C=C1C(=O)OC2CC(C)C3(O)CCC(=O)C3(C)CC12,H37Rv,-,MIC,-,128 µg/mL
CCCCCCCCc1ccc2c(c1)C(=O)c1nc3ccncc3c(=O)n1-2,TN913RFLP:C (DRUG sensitive),-,MIC,-,≤0.015 µg/mL
CC(=O)Oc1ccccc1C(=O)Nc1ncc([N+](=O)[O-])s1,ND spoligotype 106,visual reading,MIC,-,20 µg/mL

Repeating the final 5 entries:

| structure | strain or isolate | read by | measure | tested at | result |
|---|---|---|---|---|---|
| COC(=O)C1C(=O)C2OC1C1OC(C)(C)OC21 | H37Rv | BACTEC | MIC bound | - | >12.5 µg/mL |
| O=C1c2ccccc2-n2c1nc1ncccc1c2=O | H37Rv | - | MIC | - | 0.25 µg/mL |
| C=C1C(=O)OC2CC(C)C3(O)CCC(=O)C3(C)CC12 | H37Rv | - | MIC | - | 128 µg/mL |
| CCCCCCCCc1ccc2c(c1)C(=O)c1nc3ccncc3c(=O)n1-2 | TN913RFLP:C (DRUG sensitive) | - | MIC | - | ≤0.015 µg/mL |
| CC(=O)Oc1ccccc1C(=O)Nc1ncc([N+](=O)[O-])s1 | ND spoligotype 106 | visual reading | MIC | - | 20 µg/mL |

Lines come from different laboratories, so protocols vary. Inhibition is in % at the dose shown (toxicity tests: loss of growth or viability). An empty or dashed field is not shown. MIC bound comes from a single tested concentration.